Pooled drug test results. Numbers come from NIAID ChemDB, via PubChem.

Shared fields: tests on isolated targets; species: HIV-1; target: Reverse transcriptase; endpoint: IC50

a–b is a range or a potency band. Lines come from different laboratories, so protocols vary. Blank or dashed fields: not listed here. ICn: concentration for n% inhibition.

smiles | strain | mutations | read by | result
O=C(CSc1nnc(Br)n1-c1ccc(C2CC2)c2ccccc12)Nc1ccc(C(=O)N[C@@H](Cc2ccc(O)cc2)C(=O)O)cc1Cl | - | RT-Y181C | nucleotide incorporation / radiometric | <0.05 µM
COc1c(/C=C/C(=O)c2ccc(-c3ccccc3)cc2)ccc2ccccc12 | - | - | RT activity / nucleotide incorporation | 4 µM
CCN1c2ncc(CCOc3ccc(-c4ccc(C)nc4)cc3C)cc2C(=O)N(C)c2cccnc21 | IIIB | RT-K103N Y181C | nucleotide incorporation / radiometric | <0.05 µM
C=C(C)CN1C(=O)c2ccccc2Oc2ncccc21 | LAV | - | nucleotide incorporation / radiometric | ~10 µg/mL
CCN1c2ncc(CCOc3ccc(C(=O)NCC4(C(=O)O)CCCC4)cc3C)cc2C(=O)N(C)c2cccnc21 | IIIB | RT-K103N Y181C | nucleotide incorporation / radiometric | >0.1 µM
O=C1CSC(c2c(Cl)cccc2Cl)N1c1nc(-c2ccccc2)cc(C(F)(F)F)n1 | - | - | absorbance | >100 µg/mL
COC(=O)[C@H](CC(C)C)NC(=O)c1ccc(NC(=O)CSc2nnc(Br)n2-c2ccc(C3CC3)c3ccccc23)c(Cl)c1 | - | RT-Y181C | nucleotide incorporation / radiometric | <0.05 µM
C=C(Cl)CN1C(=O)c2ccccc2Oc2ncccc21 | LAV | - | nucleotide incorporation / radiometric | <10 µg/mL
COc1c(/C=C/C(=O)c2ccc(Br)cc2)ccc2ccccc12 | - | - | RT activity / nucleotide incorporation | 6 µM
CC(C)[C@H](NC(=O)c1ccccc1)C(=O)N/N=C/c1c(F)cccc1Cl | - | - | RT activity | 79.5 µM
Cc1cc(C)cc(S(=O)(=O)c2c(C(N)=O)[nH]c3ccc(F)c(F)c23)c1 | - | RT-K103N | nucleotide incorporation / radiometric | 0.75 µM
CC(=O)OC1=C(C[C@]2(C)[C@@H](C)CC[C@]3(C)C(C)=CCC[C@@H]23)C(=O)C=CC1=O | - | - | - | >50 µg/mL
Nc1nc2c(ncn2COCCOP(=O)(O)OP(=O)(O)OP(=O)(O)O)c(=O)[nH]1 | - | - | nucleotide incorporation | 0.34 µM
Cc1cc(C(F)(F)F)nc(N2C(=O)CSC2c2c(F)cccc2Cl)n1 | - | - | absorbance | ~10 µg/mL
Nc1nc2c(ncn2COC(CO)COP(=O)(O)OP(=O)(O)OP(=O)(O)O)c(=O)[nH]1 | - | - | nucleotide incorporation | 20 µM
CCN1C(=O)c2cccc(C)c2Oc2ncccc21 | LAV | - | nucleotide incorporation / radiometric | <10 µg/mL
CC1=CCC[C@H]2[C@](C)(Cc3c(O)ccc(O)c3O)[C@@H](C)CC[C@]12C | - | - | - | 14.5 µg/mL
Cc1cc(C2CC2)cc(C)c1-n1c(Br)nnc1SCC(=O)Nc1ccc(C(=O)O)cc1Cl | - | RT-Y188L | nucleotide incorporation / radiometric | >0.1 µM
CCCCCCCCC(O)C(=O)O[C@H]1CC(C)(C)[C@@H]2CC=C(C=O)C3[C@@H](O)OC(=O)[C@@]32[C@H]1O | - | - | nucleotide incorporation | 91 µM
CC1(C)O[C@@H]2[C@H](O1)[C@H](O)O[C@@H]2C1=NO[C@@H](C[C@H]2O[C@H](CO)[C@@H](O)[C@H](O)[C@@H]2O)C1 | - | - | RT activity / absorbance | >50 µM
CC(C)Nc1cccnc1N1CCN(C(=O)c2[nH]c3c(/C(O)=C/C(=O)C(=O)O)cccc3c2Cl)CC1 | - | - | nucleotide incorporation | >100 µM
NC1C=CN([C@@H]2O[C@H](COP(=O)(O)OP(=O)(O)OP(=O)(O)O)[C@@H](O)[C@@H]2O)C(=O)N1 | - | - | - | >100 µM
Cc1ccc(S(=O)(=O)c2c(-c3ccccc3)[nH]c3ccccc23)cc1 | - | K103N | RT activity | 46 µM
O=C1c2ccccc2C(=O)c2c1ccc1[nH]c([C@H]3O[C@H](CO)[C@H](O)[C@H]3O)nc21 | - | - | RT activity / absorbance | 8.51 µM
CC(C)C[C@H](NC(=O)c1ccc(NC(=O)CSc2nnc(Br)n2-c2ccc(C3CC3)c3ccccc23)c(Cl)c1)C(=O)O | - | - | nucleotide incorporation / radiometric | <0.05 µM
Cc1cc(C)cc(S(=O)(=O)c2c(C(N)=O)[nH]c3ccc(Cl)cc23)c1 | WT | - | nucleotide incorporation / radiometric | 0.003 µM
O=C1CSC(c2c(F)cccc2F)N1c1nc(-c2ccccc2)cc(-c2ccccc2)n1 | - | - | absorbance | >100 µg/mL
O=C(O)c1cn(CC2(c3ccccc3)CCCC2)cc(O)c1=O | - | - | nucleotide incorporation / radiometric | 8.2 µM
CC1(C)O[C@H]2O[C@H](C3=NO[C@@H](C[C@H]4O[C@H](CO)[C@@H](O)[C@H](O)[C@@H]4O)C3)[C@H](O)[C@H]2O1 | - | - | RT activity / absorbance | 7.17 µM
Cc1cc(-c2ccccc2)nc(N2C(=O)CSC2c2c(F)cccc2F)n1 | - | - | absorbance | 10–100 µg/mL
CC1(C)O[C@@H]2[C@H](O1)[C@H](O)O[C@@H]2C1=NO[C@@H](C[C@H]2O[C@H](CO)[C@H](O)[C@H](O)[C@H]2O)C1 | - | - | RT activity / absorbance | 4.31 µM
Cc1cn([C@H]2C[C@H](N)[C@@H](COP(=O)(O)OP(=O)(O)OP(=O)(O)O)O2)c(=O)[nH]c1=O | - | - | nucleotide incorporation | <0.05 µM
COC(=O)[C@@H](NC(=O)c1ccc(NC(=O)CSc2nnc(Br)n2-c2ccc(C3CC3)c3ccccc23)c(Cl)c1)C(C)C | - | RT-Y188L | nucleotide incorporation / radiometric | 0.05–0.1 µM
CSCCN1C(=O)c2ccccc2Oc2nc(Cl)ccc21 | LAV | - | nucleotide incorporation / radiometric | <10 µg/mL
CC(C)(C)c1ccc(S(=O)(=O)c2c[nH]c3ccccc23)cc1 | - | K103N | RT activity | 37 µM
CC1(C)O[C@H]2O[C@H](C3=NO[C@H](C[C@H]4O[C@H](CO)[C@@H](O)[C@H](O)[C@@H]4O)C3)[C@H](O)[C@H]2O1 | - | - | RT activity / absorbance | 9.61 µM
CC(=O)Oc1c(O)ccc(O)c1C[C@]1(C)[C@@H](C)CC[C@]2(C)C(C)=CCC[C@@H]12 | - | - | - | >50 µg/mL
COc1ccc2c(C3CC3)ccc(-n3c(Br)nnc3SCC(=O)Nc3ccc(C(=O)O)cc3Cl)c2c1 | - | RT-Y188L | nucleotide incorporation / radiometric | 0.05–0.1 µM
O=C1c2ccccc2C(=O)c2c1ccc1[nH]c(CNCCCN3[C@@H](CO)[C@@H](O)[C@H](O)[C@@H]3CO)nc21 | - | - | RT activity / absorbance | 27.78 µM
Cc1cn([C@H]2CC[C@@H](COP(=O)(O)OP(=O)(O)OP(=O)(O)O)O2)c(=O)[nH]c1=O | - | - | nucleotide incorporation | <0.05 µM
O=S(=O)(c1ccc(Cl)cc1)c1c[nH]c2ccccc12 | - | K103N | RT activity | >100 µM
CCN1c2ncc(CCOc3ccc(-c4ccc(CC(=O)O)cc4)cc3CO)cc2C(=O)N(C)c2cccnc21 | IIIB | RT-K103N Y181C | nucleotide incorporation / radiometric | <0.05 µM
C/C=C/CN1C(=O)c2ccccc2Oc2ncccc21 | LAV | - | nucleotide incorporation / radiometric | >10 µg/mL
O=C1c2ccccc2C(=O)c2c1ccc1[nH]c(CNCCCCCCN3[C@@H](CO)[C@@H](O)[C@H](O)[C@@H]3CO)nc21 | - | - | RT activity / absorbance | 31.12 µM
Cc1ccc(S(=O)(=O)c2c(C)[nH]c3ccccc23)cc1 | - | WT | RT activity | 84 µM
CCc1ccc(-n2c(Br)nnc2SCC(=O)Nc2ccc(C(=O)NCC(=O)O)cc2Cl)c2ccccc12 | - | RT-Y181C | nucleotide incorporation / radiometric | <0.05 µM
Cc1cc(C)cc(S(=O)(=O)n2cc(-c3cccc([N+](=O)[O-])c3)c3ccccc32)c1 | - | WT | RT activity | 96 µM
O=C(CSc1nnc(Br)n1-c1ccc(C2CC2)cc1Cl)Nc1ccc(C(=O)O)cc1Cl | - | RT-Y181C | nucleotide incorporation / radiometric | <0.05 µM
O=C1c2ccccc2C(=O)c2c1ccc1[nH]c(CNCCCCN3[C@@H](CO)[C@@H](O)[C@H](O)[C@@H]3CO)nc21 | - | - | RT activity / absorbance | 33.13 µM
CC(C)CCC[C@@H](C)[C@H]1CC[C@H]2[C@@H]3CC[C@H]4C[C@@H](CCC=C(c5cc(Cl)c(O)c(C(=O)O)c5)c5cc(Cl)c(O)c(C(=O)O)c5)CC[C@]4(C)[C@H]3CC[C@]12C | - | - | RT activity | 7.8 µM
CCN1c2ncc(CCOc3ccc(NC(=O)Nc4ccc(C(=O)O)cc4)cc3C)cc2C(=O)N(C)c2cccnc21 | IIIB | RT-K103N Y181C | nucleotide incorporation / radiometric | <0.05 µM
COc1c(/C=C/C(=O)c2ccc(F)cc2)ccc2ccccc12 | - | - | RT activity / nucleotide incorporation | 5 µM
C=CCN1C(=O)c2ccccc2Oc2nc(Cl)ccc21 | LAV | - | nucleotide incorporation / radiometric | <10 µg/mL

For reference, 6 entries again:

smiles	strain	mutations	read by	result
COc1c(/C=C/C(=O)c2ccc(F)cc2)ccc2ccccc12	-	-	RT activity / nucleotide incorporation	5 µM
CC(C)C[C@H](NC(=O)c1ccc(NC(=O)CSc2nnc(Br)n2-c2ccc(C3CC3)c3ccccc23)c(Cl)c1)C(=O)O	-	-	nucleotide incorporation / radiometric	<0.05 µM
C/C=C/CN1C(=O)c2ccccc2Oc2ncccc21	LAV	-	nucleotide incorporation / radiometric	>10 µg/mL
CC(C)Nc1cccnc1N1CCN(C(=O)c2[nH]c3c(/C(O)=C/C(=O)C(=O)O)cccc3c2Cl)CC1	-	-	nucleotide incorporation	>100 µM
Cc1cn([C@H]2C[C@H](N)[C@@H](COP(=O)(O)OP(=O)(O)OP(=O)(O)O)O2)c(=O)[nH]c1=O	-	-	nucleotide incorporation	<0.05 µM
O=C1CSC(c2c(Cl)cccc2Cl)N1c1nc(-c2ccccc2)cc(C(F)(F)F)n1	-	-	absorbance	>100 µg/mL